Several values for one entry are separate records, joined by “and”; a condition that tells them apart may be missing. Identical values can stand only once.
Assays:
[1] = target: SARS-CoV-2 Spike (S) protein, recombinant, construct not stated at the place (SARS-CoV-2) (UniProt P0DTC2)
[2] = target: SARS-CoV-2 Spike (S) protein, recombinant, construct not stated at the place (SARS-CoV-2) (UniProt P0DTC2); remark: listed apart in the source

With “L-SIGN-Fc in combination with ACE2-Fc (from UniProt Q9BYF1 18-740; Q9H2X3 71-399)” as the substance, how does the percent blockade [1] read?
Its percent blockade is 70% and 80%.

And the blocking of S protein binding (heat-map cell) [2]?
Its blocking of S protein binding (heat-map cell) is 10.2%.

Which percent blockade [1] does the source give for “DC-SIGN-Fc in combination with ACE2-Fc (from UniProt Q9BYF1 18-740; Q9NNX6 59-404)” here?
Its percent blockade is 70% and 80%.

— patent publication US20220089695A1
